{"source": "patent US20220218583A1", "molecular_target": "endogenous TRAF6 of LPS-treated macrophages / Rv2626c-expressing cells", "test": "cell-based or functional assay"}
{"substance": "rRv2626c-WT", "values": [{"measurement": "IC50 (inflammatory response of LPS-treated macrophages, FIG. 14)", "value": 2.5, "unit": "µg/mL"}]}
